Reference: US20040091855A1, “Method for production of antivirals by use of HIV-derived HR1 peptides, and trimers formed therefrom” (priority 2002, published 2004)

Experiments:
[1] = test system: HR2 peptide (SEQ ID NO:33); test: Fluorescence polarization assay of binding to labeled HR2 peptide; set-up: species or system HIV-1; conditions: for HR2 peptide binding: ability to complex with HR2 peptide denoted as yes; for Binding curve with HR2 peptide (FIG. 4): fluorescence polarization, shape of the transition
[2] = Oligomerization as determined by crystallography; assay type: physicochemical
[3] = Helicity by circular dichroism; assay type: physicochemical; conditions: at 10 μM, 25° C.
[4] = Thermal stability (Tm) by CD signal at 222 nm; assay type: physicochemical; conditions: at 10 μM
HIV IIIB = assay type: cell-based, HIV-1; conditions: IIIB
[5] = test system: HR2 peptide (SEQ ID NO:33); test: Protein chip assay (Biacore, surface plasmon resonance) of binding to HR2 peptide; set-up: species or system HIV-1
From the text: These include a protein chip assay (using Biacore analysis) in which surface plasmon resonance is used to detect the binding, and kinetics thereof, between a synthetic peptide and an HR2 peptide; and a fluorescence polarization assay. In the fluorescence polarization assay, a detectable moiety comprising a fluorescent dye (e.g., rhodamine and/or fluorescein) was used to label HR2 peptide, and the assay was then allowed to proceed under sufficient conditions and for a sufficient period of time for labeled peptide to bind to HR1 peptide, or synthetic peptide (or trimer formed therefrom).

[6] = Sedimentation equilibrium experiments (oligomerization state); assay type: physicochemical; conditions: in solution

**Q.** For `CC[C@H](C)[C@H](NC(=O)CNC(=O)[C@H](Cc1c[nH]c2ccccc12)NC(=O)[C@@H](NC(=O)[C@@H](NC(=O)[C@H](C)NC(=O)[C@H](CCC(N)=O)NC(=O)[C@H](CC(C)C)NC(=O)[C@H](C)NC(=O)[C@H](Cc1c[nH]cn1)NC(=O)[C@H](CCC(N)=O)NC(=O)[C@@H](NC(=O)[C@H](C)NC(=O)[C@H](CCC(=O)O)NC(=O)[C@@H](NC(=O)[C@H](C)NC(=O)[C@H](CCCNC(=N)N)NC(=O)[C@H](CC(C)C)NC(=O)[C@H](CC(C)C)NC(=O)[C@H](CC(N)=O)NC(=O)[C@H](CC(N)=O)NC(=O)[C@H](CCC(N)=O)NC(=O)[C@H](CCC(N)=O)NC(=O)[C@H](CCC(N)=O)NC(=O)[C@@H](NC(=O)[C@@H](NC(=O)CNC(=O)[C@H](CO)NC(=O)[C@H](CC(C)C)NC(=O)[C@H](CC(C)C)NC(=O)[C@H](CCC(N)=O)NC(=O)[C@H](CCCNC(=N)N)NC(=O)[C@@H](NC(=O)[C@H](CCC(N)=O)NC(C)=O)[C@@H](C)CC)[C@@H](C)CC)C(C)C)[C@@H](C)CC)[C@@H](C)CC)[C@@H](C)CC)C(C)C)C(=O)N[C@@H](CCCCN)C(=O)N[C@@H](CCC(N)=O)C(=O)N[C@@H](CC(C)C)C(=O)N[C@@H](CCC(N)=O)C(=O)N[C@@H](C)C(=O)N[C@@H](CCCNC(=N)N)C(=O)N[C@H](C(=O)N[C@@H](CC(C)C)C(=O)N[C@@H](C)C(=O)N[C@H](C(=O)N[C@@H](CCC(=O)O)C(=O)N[C@@H](CCCNC(=N)N)C(=O)N[C@@H](Cc1ccc(O)cc1)C(=O)N[C@@H](CC(C)C)C(=O)N[C@@H](CCCCN)C(N)=O)C(C)C)[C@@H](C)CC` [SEQ ID NO:36], which HR2 peptide binding [1] is on record?
**A.** Yes

**Q.** And the “Binding curve with HR2 peptide (FIG. 4)” value [1]?
**A.** cooperative transition at a narrow concentration range

**Q.** And the Oligomerization [2]?
**A.** Trimer*

**Q.** And the Helicity [3]?
**A.** 90%

**Q.** What about the “Stability Tm” value [4] of the same compound?
**A.** >97 °C

**Q.** And the “Antiviral activity against HIV IIIB IC50” value (HIV IIIB)?
**A.** 0.73 µg/mL

**Q.** What about the “Antiviral activity against HIV IIIB IC90” value (HIV IIIB) of the same compound?
**A.** 3.03 µg/mL

**Q.** And the K off [5]?
**A.** 3.3 × 10^−3/

**Q.** What about the K on [5] of the same compound?
**A.** 4.3 × 10^5/

**Q.** And the Kd [5]?
**A.** 7.7 nM

**Q.** Which results are given for `CC[C@H](C)[C@H](NC(=O)CNC(=O)[C@H](Cc1c[nH]c2ccccc12)NC(=O)[C@@H](NC(=O)[C@@H](NC(=O)[C@H](C)NC(=O)[C@H](CCC(N)=O)NC(=O)[C@H](CC(C)C)NC(=O)[C@H](C)NC(=O)[C@H](Cc1c[nH]cn1)NC(=O)[C@H](CCC(N)=O)NC(=O)[C@H](CCC(N)=O)NC(=O)[C@H](C)NC(=O)[C@H](CCC(=O)O)NC(=O)[C@@H](NC(=O)[C@H](C)NC(=O)[C@H](CCCNC(=N)N)NC(=O)[C@H](CC(C)C)NC(=O)[C@H](CC(C)C)NC(=O)[C@H](CC(N)=O)NC(=O)[C@H](CC(N)=O)NC(=O)[C@H](CCC(N)=O)NC(=O)[C@H](CCC(N)=O)NC(=O)[C@H](CCC(N)=O)NC(=O)[C@@H](NC(=O)[C@@H](NC(=O)CNC(=O)[C@H](CO)NC(=O)[C@H](CC(C)C)NC(=O)[C@H](CC(C)C)NC(=O)[C@H](CCC(N)=O)NC(=O)[C@H](CCCNC(=N)N)NC(=O)[C@H](C)NC(=O)[C@H](CCC(N)=O)NC(C)=O)[C@@H](C)CC)C(C)C)[C@@H](C)CC)[C@@H](C)O)C(C)C)C(=O)N[C@@H](CCCCN)C(=O)N[C@@H](CCC(N)=O)C(=O)N[C@@H](CC(C)C)C(=O)N[C@@H](CCC(N)=O)C(=O)N[C@@H](C)C(=O)N[C@@H](CCCNC(=N)N)C(=O)N[C@H](C(=O)N[C@@H](CC(C)C)C(=O)N[C@@H](C)C(=O)N[C@H](C(=O)N[C@@H](CCC(=O)O)C(=O)N[C@@H](CCCNC(=N)N)C(=O)N[C@@H](Cc1ccc(O)cc1)C(=O)N[C@@H](CC(C)C)C(=O)N[C@@H](CCCCN)C(N)=O)C(C)C)[C@@H](C)CC` [SEQ ID NO:32]?
**A.** HR2 peptide binding [1]: Yes; Binding curve with HR2 peptide (FIG. 4) [1]: cooperative transition at a narrow concentration range; Helicity [3]: 87%; Stability Tm [4]: Tm 69 °C; Antiviral activity against HIV IIIB IC50 (HIV IIIB): 0.59 µg/mL; Antiviral activity against HIV IIIB IC90 (HIV IIIB): 1.90 µg/mL; Oligomerization ([6]; peptide 1 μM to 100 μM): as a trimeric; Oligomeric state at low concentrations ([6]; less than 50 nM): monomer and trimer equilibrium; K off [5]: 1.9 × 10^3/; K on [5]: 6.1 × 10^5; Kd [5]: 3.1 nM
